Compound potency records, mixed from different reports. Data source: NIAID ChemDB in PubChem.

Shared fields: growth or infection tests; species: HIV-1; cells: MT-4; read-out: EC50

Conditions beyond the fields shown may differ between rows. Blank or dashed fields: not listed here. Two numbers with a dash give a range or band. ECn is the concentration giving n% inhibition of infection, replication or growth.

structure,strain,mutations,read by,conditions,result
C=C(C)COCn1c(Cc2cc(C)cc(C)c2)c(CC)c(=O)[nH]c1=O,HXB2,,cytopathic effect / MTT,,0.05 µM
CCCCCCCCCCc1ccc2c(c1)N(C)[C@@H](C(C)C)C(=O)N[C@H](CO)CC2,IIIB,,cytopathic effect / MTT,,2.5–5 µg/mL
CCOCn1c(Sc2cc(C)cc(C)c2)c(CC)c(=O)[nH]c1=O,IIIB,,cytopathic effect / MTT,,0.0062 µM
Cc1cn([C@H]2C[C@H](N=[N+]=[N-])[C@@H](CO)O2)c(=O)[nH]c1=O,1506-RS (RT-Y188L),RT-Y188L,cytopathic effect / MTT,,0.07 µM
Cc1cn([C@H]2C[C@H](N=[N+]=[N-])[C@@H](CO)O2)c(=O)[nH]c1=O,KK-1,,cytopathic effect,,0.001 µg/mL
C=C[C@@]1(C)CC[C@](C)(C(C)C)c2cc3c4c(c[nH]c4c21)C[C@@H](CO)NC(=O)[C@H](C(C)C)N3C,IIIB,,cytopathic effect / MTT,,0.00006 µg/mL
CC(C)(C)C(=O)SCCOP(=O)(CC[C@H]1CO[C@@H](n2cnc3c(N)ncnc32)[C@@H]1F)OCCSC(=O)C(C)(C)C,IIIB,,MTT,,2.2 µM
CCCCCCCCCCc1ccc2c(c1)N(C)[C@H](C(C)C)C(=O)N[C@@H](CO)C2,IIIB,,cytopathic effect / MTT,,0.1 µg/mL
NC(=NCCNc1ccc2[nH]ccc2c1)N[N+](=O)[O-],IIIB,,MTT,,>400 µM
C1CNCCNCC(CCOCCOCCC2CNCCNCCCNCCNC2)CNCCNC1,RF,,cytopathic effect / MTT,5 d,2.3 µM
CCOCn1c(Cc2cc(C)cc(C)c2)c(CC)c(=O)[nH]c1=O,HE,,cytopathic effect / MTT,,0.0076 µM
CC(=O)c1ccc(C)cc1NC(C(N)=O)c1c(Cl)cccc1Cl,HE,,cytopathic effect / MTT,,0.037 µM
Nc1ccn([C@H]2CC[C@@H](CO)O2)c(=O)n1,Clinical isolate,ddI-resistant,,clinical isolate,0.65 µM
NCCNc1ccc2[nH]ccc2c1,IIIB,,MTT,,>252 µM
Cc1cn([C@H]2C[C@H](N=[N+]=[N-])[C@@H](CO)O2)c(=O)[nH]c1=O,IIIB MKC-442-resistant (RT Y181C),RT-Y181C,cytopathic effect / MTT,,0.001 µM
CO[C@H]1CC[C@H](C)N2C[C@H]1n1cc(C(=O)NCc3ccc(F)c(Cl)c3F)c(=O)c(O)c1C2=O,IIIB,,luminescence,,0.001 µM
Cc1ccncc1-c1ccc(C[C@H](C[C@H](O)CN2CCN(Cc3ccc(-c4ccc(Cl)cc4)o3)C[C@H]2C(=O)NCC(F)(F)F)C(=O)N[C@H]2c3ccccc3OC[C@H]2O)o1,NL4-3,,p24,,<0.0156 µM
CCOC(=O)c1cn(Cc2ccncc2)c(Sc2cc(Cl)cc(Cl)c2)c1C(C)C,IIIB,,cytopathic effect / MTT,,0.9 µM
CO[P@](=O)(c1cc(C)cc(/C=C/C#N)c1)c1c(C(N)=O)[nH]c2ccc(Cl)cc12,IIIB,K103N/Y181C,,,0.0091 µM
COc1c(O)c(Cl)c2c(c1OC)-c1c(c(Cl)c(O)c(OC)c1OC)C[C@H](C)[C@H](C)C2,TIBO-resistant L100I (RT-L100I),RT-L100I,cytopathic effect / MTT,,1.42 µM
CCOCn1c(Sc2cc(C)cc(C)c2)c(CC)c(=O)[nH]c1=S,HE,,cytopathic effect / MTT,,0.011 µM
CNC(=O)CSP(=O)(NCC(=O)OC)OC[C@@H]1CC[C@H](n2cc(C)c(=O)[nH]c2=O)O1,,,cytopathic effect / XTT,,2 µM
CCC(C)n1cc(C(=O)O)c(=O)c2cc(I)c(Oc3ccnc(Nc4ccc(C#N)cc4)n3)cc21,IIIB,,MTT,,0.048 µM
CC(C)c1c(COC(N)=O)cn(Cc2ccncc2)c1Sc1cc(Cl)cc(Cl)c1,IIIB,,cytopathic effect / MTT,,0.3 µM
C1CNCCNCC(CCCC2CNCCNCCCNCCNC2)CNCCNC1,MN,,cytopathic effect / MTT,5 d,0.35 µM
CCCN(C)C(=O)Oc1nsnc1-c1c(Cl)ccc(N)c1Cl,clinical isolate A012D AZT-resistant,,p24,,0.0089 µM
CC(C)CN(C[C@@H](O)[C@H](Cc1ccccc1)NC(=O)[C@H](CC(N)=O)NC(=O)c1ccc2ccccc2n1)C(=O)NC(C)(C)C,NL4-3,PR-L10R L63P,p24,,<0.2 µM
c1cc(CN2CCCNCCNCCCNCC2)ccc1CN1CCCNCCNCCCNCC1,NL4 Aco-HSA-resistant,,cytopathic effect / MTT,,0.01 µg/mL
CC(C)c1c(CO)cn(Cc2ccncc2)c1S(=O)(=O)c1ccccc1,IIIB,,cytopathic effect / MTT,,2.6 µM
Cc1cn([C@@H]2CC(CO)(CO)CS2)c(=O)[nH]c1=O,,,cytopathic effect,,>100 µg/mL
NCCCNc1ccc2[nH]ccc2c1,IIIB,,MTT,,>229 µM
O=C1c2c(O)c(=O)n(CC(c3ccncc3)N3CCOCC3)c(=O)n2CCN1Cc1ccc(F)cc1,,,p24,,<10 µM
O=C(N[C@H]1c2ccccc2OC[C@H]1O)[C@H](Cc1cc2ccncc2o1)C[C@H](O)CN1CCN(Cc2ccc(-c3ccc(Cl)cc3)o2)C[C@H]1C(=O)NCC(F)(F)F,4X (PR M46I L63P V82T I84V),PR-M46I L63P V82T I84V,p24,,<0.0313 µM
CCOCn1c(Cc2ccccc2)c(C(C)C)c(=O)[nH]c1=O,IIIB,,cytopathic effect / MTT,,0.02 µM
CN(C)c1cccc2c(S(=O)(=O)N3CCSC3c3cccnc3)cccc12,IIIB,,cytopathic effect / MTT,,3.35 µM
O=C1c2c(O)c(=O)n(C3CCC3)c(=O)n2CCN1Cc1ccc(F)cc1,,,p24,,<10 µM
Cc1cn([C@H]2C=C[C@@H](CO)O2)c(=O)[nH]c1=O,IIIB,,cytopathic effect / MTT,,0.034 µM
O=C1N(Cc2ccc(CO)cc2)[C@H](Cc2ccccc2)[C@H](O)[C@@H](O)[C@@H](Cc2ccccc2)N1Cc1ccc(CO)cc1,NL4-3,PR-L63P,p24,,<0.1 µM
O=C(N[C@H]1c2ccccc2OC[C@H]1O)[C@H](Cc1cc2cnccc2s1)C[C@H](O)CN1CCN(Cc2ccc(-c3ccc(Cl)cc3)o2)C[C@H]1C(=O)NCC(F)(F)F,NL4-3,,p24,,<0.0156 µM
Cc1ccnc2c1NC(=O)c1cccnc1N2C1CC1,,RT-K101E,cytopathic effect / MTT,,0.316 µM
Nc1ccn([C@@H]2CC(CO)(CO)CS2)c(=O)n1,,,cytopathic effect,,19.3 µg/mL
CCCCCCCCCCc1ccc2c(c1)N(C)[C@@H](C(C)C)C(=O)N[C@@H](CO)CC2,IIIB,,cytopathic effect / MTT,,0.3 µg/mL
O=C1c2c(O)c(=O)n(C3CN4CCC3CC4)c(=O)n2CCN1Cc1ccc(F)cc1,,,p24,,<10 µM
N=C(CNC(=O)NCCCNc1ccc2[nH]ccc2c1)N[N+](=O)[O-],IIIB,,MTT,,>375 µM
CC(C)[C@H]1C(=O)N[C@H](CO)Cc2c[nH]c3cccc(c23)N1C,IIIB,,cytopathic effect / MTT,,0.013 µg/mL
C(CCC1CNCCNCCCNCCNC1)CCC1CNCCNCCCNCCNC1,RF,,cytopathic effect / MTT,5 d,0.35 µM
CCn1cc(C(=O)O)c(=O)c2cc(I)c(Oc3ccnc(Nc4ccc(C#N)cc4)n3)cc21,IIIB,K103N Y181C NNRTI-resistant,MTT,,2.87 µM
Cc1ccnc2c1NC(=O)c1cccnc1N2C1CC1,HE-NEV,,cytopathic effect / MTT,5 d,>1000 µM
CCc1c(Sc2cc(C)cc(C)c2)n(COCCO)c(=O)[nH]c1=O,IIIB,RT-D67N K70R K172R,cytopathic effect / MTT,,0.014 µM
O=c1[nH]cnc2c1ncn2[C@H]1CC[C@@H](CO)O1,RF,,cytopathic effect / MTT,,13 µM
Cc1cn([C@H]2C[C@H](N=[N+]=[N-])[C@@H](CO)O2)c(=O)[nH]c1=O,NL4-3,,p24 / ELISA,,0.02 µM
O=C1c2c(O)c(=O)n(CCc3cn4ccccc4n3)c(=O)n2CCN1Cc1ccc(F)cc1,,,p24,,<10 µM
CCOP(=O)(OC[C@H]1O[C@@H](n2cc(C)c(=O)[nH]c2=O)C[C@@H]1F)SCC(=O)NC,,,cytopathic effect / XTT,,0.01 µM
CCNC(N)=NCCNc1ccc2[nH]ccc2c1,IIIB,,MTT,,>47.28 µM
Nc1ncnc2c1ncn2CCOCP(=O)(O)O,IIIB,,MTT,,>10 µM
c1cc2cc(NCCNC3=NCCN3)ccc2[nH]1,IIIB,,MTT,,>88.57 µM
C1CNCCNCC(CCC2CNCCNCCCNCCNC2)CNCCNC1,MN,,cytopathic effect / MTT,5 d,0.26 µM
CC(C)n1cc(C(=O)O)c(=O)c2cc(Br)c(Oc3ccnc(Nc4ccc(C#N)cc4)n3)cc21,IIIB,K103N Y181C NNRTI-resistant,MTT,,2.36 µM
Cc1cn([C@H]2C[C@H](N=[N+]=[N-])[C@@H](CO)O2)c(=O)[nH]c1=O,IIIB,,cytopathic effect / MTT,5 d,0.022 µM
CCc1c(Sc2cc(C)cc(C)c2)n(COCCOP(=O)(O)OC[C@H]2O[C@@H](n3cc(C)c(=O)[nH]c3=O)C[C@@H]2N=[N+]=[N-])c(=O)[nH]c1=O,IIIB,RT-D67N K70R K172R,cytopathic effect / MTT,,0.01 µM
CC(C)=CCN1Cc2cccc3[nH]c(=S)n(c23)C[C@@H]1C,TIBO-resistant L100I (RT-L100I),RT-L100I,cytopathic effect / MTT,,47.2 µM
CC(C)=CCOCn1c(Cc2cc(C)cc(C)c2)c(C(C)C)c(=O)[nH]c1=O,IIIB,RT-K103N Y181C,cytopathic effect / MTT,,26 µM
NC1=Nc2c(ncn2CCCCC(F)(F)P(=O)(O)O)C(=O)C1,RF,,cytopathic effect / MTT,,>500 µM
CC(C)(C)n1cc(C(=O)O)c(=O)c2cc(Br)c(Oc3ccnc(Nc4ccc(C#N)cc4)n3)cc21,IIIB,K103N Y181C NNRTI-resistant,MTT,,>23.58 µM
O=S(=O)(c1cccc2ccccc12)N1CCSC1c1cccnc1,IIIB,,cytopathic effect / MTT,,>1000 µM
O=C1c2c(O)c(=O)n(C3CCCCN(Cc4ccccc4)C3=O)c(=O)n2CCN1Cc1ccc(F)cc1,,,p24,,<10 µM
CC(C)c1c(COC(N)=O)cn(Cc2ccncc2)c1Sc1ccccc1,IIIB,,cytopathic effect / MTT,,1.4 µM
O=c1[nH]cnc2c1ncn2[C@H]1CC[C@@H](CO)O1,,,cytopathic effect / XTT,,4 µM
CCCCCCCCCCc1ccc2c(c1)N(C)[C@@H](C(C)C)C(=O)N[C@@H](CO)C2,IIIB,,cytopathic effect / MTT,,0.63 µg/mL
CC(C)Cn1cc(C(=O)O)c(=O)c2cc(Br)c(Oc3ccnc(Nc4ccc(C#N)cc4)n3)cc21,IIIB,,MTT,,0.82 µM
O=C(N[C@H]1c2ccccc2OC[C@H]1O)[C@H](Cc1cc2cnccc2s1)C[C@H](O)CN1CCN(Cc2ccc(-c3ccc(Cl)cc3)s2)C[C@H]1C(=O)NCC(F)(F)F,NL4-3,,p24,,<0.0156 µM
Cc1cn([C@H]2C[C@H](N=[N+]=[N-])[C@@H](CO)O2)c(=O)[nH]c1=O,RF,,p24 / RT activity,,0.085 µM
CCCN(C)C(=O)Oc1nsnc1-c1c(Cl)cccc1Cl,IIIB,,cytopathic effect / MTT,,0.0125 µM
COC(=O)CNP(=O)(NCC(=O)OC)OC[C@H]1O[C@@H](n2cc(C)c(=O)[nH]c2=O)C[C@@H]1OC(C)=O,,,cytopathic effect / XTT,,>100 µM
Cc1ccncc1-c1ccc(C[C@H](C[C@H](O)CN2CCN(C(C)(C)c3ncc(-c4ccc(Cl)cc4)s3)C[C@H]2C(=O)NCC(F)(F)F)C(=O)N[C@H]2c3ccccc3OC[C@H]2O)o1,4X (PR M46I L63P V82T I84V),PR-M46I L63P V82T I84V,p24,,<0.0313 µM